Experimental data taken from PMC9502897, “Design, Synthesis and Structure—Activity Relationships of Phenylalanine-Containing Peptidomimetics as Novel HIV-1 Capsid Binders Based on Ugi Four-Component Reaction” (Molecules, 2022).

Columns and labels:
[1] = tested on: HIV-2; test: Anti-HIV-2 activity in MT-4 cells (MTT method); assay type: cell-based; details: selectivity index, ratio of CC50/EC50
Description: (§1) The evaluation of the antiviral activity of the compounds against HIV in MT-4 cells was performed using the MTT assay as described below. Stock solutions (10 × final concentration) of test compounds were added in 25 μL volumes to two series of triplicate wells to allow simultaneous evaluation of their effects on mock- and HIV-infected cells at the beginning of each experiment. Serial 5-fold dilutions of test compounds were made directly in flat-bottomed 96-well microtiter trays using a Biomek 3000 robot (Beckman Instruments, Fullerton, CA). Untreated HIV- and mock-infected cell samples were included as controls. HIV stock ([…]) at 100–300 CCID50 (50% cell culture infectious doses) or culture medium was added to either the infected or mock-infected wells of the microtiter tray. Mock-infected cells were used to evaluate the effects of the test compound on uninfected cells to assess the test compounds’ cytotoxicity. Exponentially growing MT-4 cells were centrifuged for 5 min at 220 g, and the supernatant was discarded. The MT-4 cells were resuspended at 6 × 10^5 cells/mL, and 50 μL volumes were transferred to the microtiter tray wells. Five days after infection, the viability of mock- and HIV-infected cells was examined spectrophotometrically using the MTT assay. The MTT assay is based on the reduction of yellow-colored 3-(4,5-dimethylthiazol-2-yl)-2,5-diphenyltetrazolium bromide (MTT) (Acros Organics) by mitochondrial dehydrogenase activity in metabolically active cells to a blue-purple formazan that can be measured spectrophotometrically. The absorbances were read in an eight-channel computer-controlled photometer (Infinite M1000, Tecan) at two wavelengths (540 and 690 nm). All data were calculated using the median absorbance value of three wells.

[2] = tested on: HIV-1; test: Anti-HIV-1 activity in MT-4 cells (MTT method); assay type: cell-based; details: selectivity index, ratio of CC50/EC50
Description: as §1

| Compound | SI HIV-2 [1] | SI HIV-1 [2] |
| --- | --- | --- |
| COc1ccc(N(C)C(=O)[C@H](Cc2cc(F)cc(F)c2)NC(=O)CN(Cc2ccc(C#N)cc2)C(=O)Cc2ccc3ccccc3c2)cc1 [I-13, (S)-2-(2-(N-(4-cyanobenzyl)-2-(naphthalen-2-yl)acetamido)acetamido)-3-(3,5-difluorophenyl)-N-(4-methoxyphenyl)-N-methylpropanamide] | >1 | – |
| COc1ccc(N(C)C(=O)[C@H](Cc2cc(F)cc(F)c2)NC(=O)CN(Cc2ccccc2)C(=O)Cc2c(C)[nH]c3ccccc23)cc1 [I-21, (S)-2-(2-(N-benzyl-2-(2-methyl-1H-indol-3-yl)acetamido)acetamido)-3-(3,5-difluorophenyl)-N-(4-methoxyphenyl)-N-methylpropanamide] | 4 | 10 |
| COc1ccc(N(C)C(=O)[C@H](Cc2cc(F)cc(F)c2)NC(=O)CN(Cc2ccc(F)cc2)C(=O)Cc2ccc(B3OC(C)(C)C(C)(C)O3)cc2)cc1 [I-12, (S)-3-(3,5-difluorophenyl)-2-(2-(N-(4-fluorobenzyl)-2-(4-(4,4,5,5-tetramethyl-1,3,2-dioxaborolan-2-yl)phenyl)acetamido)acetamido)-N-(4-methoxyphenyl)-N-methylpropanamide] | 5 | 6 |
| COc1ccc(N(C)C(=O)[C@H](Cc2cc(F)cc(F)c2)NC(=O)CN(Cc2ccc(C#N)cc2)C(=O)Cc2cccc3ccccc23)cc1 [I-14, (S)-2-(2-(N-(4-cyanobenzyl)-2-(naphthalen-1-yl)acetamido)acetamido)-3-(3,5-difluorophenyl)-N-(4-methoxyphenyl)-N-methylpropanamide] | >82 | – |
| COc1ccc(N(C)C(=O)[C@H](Cc2cc(F)cc(F)c2)NC(=O)CN(CC2CCCCC2)C(=O)Cc2c[nH]c3ccc(Br)cc23)cc1 [I-10, (S)-2-(2-(2-(5-bromo-1H-indol-3-yl)-N-(cyclohexylmethyl)acetamido)acetamido)-3-(3,5-difluorophenyl)-N-(4-methoxyphenyl)-N-methylpropanamide] | <1 | <1 |
| COc1ccc(N(C)C(=O)[C@H](Cc2cc(F)cc(F)c2)NC(=O)CN(CC2CCCCC2)C(=O)Cn2nc(C(F)(F)F)cc2C)cc1 [I-20, (S)-2-(2-(N-(cyclohexylmethyl)-2-(5-methyl-3-(trifluoromethyl)-1H-pyrazol-1-yl)acetamido)acetamido)-3-(3,5-difluorophenyl)-N-(4-methoxyphenyl)-N-methylpropanamide] | 2 | 2 |
| (S)-2-(2-(2-(5-bromo-2-methyl-1H-indol-3-yl)-N-(4-cyanobenzyl)acetamido)acetamido)-3-(3,5-difluorophenyl)-N-(4-methoxyphenyl)-N-methylpropanamide [I-16] | 6 | 16 |
| COc1ccc(N(C)C(=O)[C@H](Cc2cc(F)cc(F)c2)NC(=O)CN(C(=O)Cc2ccc(B3OC(C)(C)C(C)(C)O3)cc2)C2CC2)cc1 [I-18, (S)-2-(2-(N-cyclopropyl-2-(4-(4,4,5,5-tetramethyl-1,3,2-dioxaborolan-2-yl)phenyl)acetamido)acetamido)-3-(3,5-difluorophenyl)-N-(4-methoxyphenyl)-N-methylpropanamide] | 9 | 17 |
| COc1ccc(N(C)C(=O)[C@H](Cc2cc(F)cc(F)c2)NC(=O)CN(Cc2ccc(F)cc2)C(=O)Cc2cccc3ccccc23)cc1 [I-8, (S)-3-(3,5-difluorophenyl)-2-(2-(N-(4-fluorobenzyl)-2-(naphthalen-1-yl)acetamido)acetamido)-N-(4-methoxyphenyl)-N-methylpropanamide] | >33 | – |
| COc1ccc(N(C)C(=O)[C@H](Cc2cc(F)cc(F)c2)NC(=O)CN(Cc2ccc(C#N)cc2)C(=O)Cc2ccc(B3OC(C)(C)C(C)(C)O3)cc2)cc1 [I-17, (S)-2-(2-(N-(4-cyanobenzyl)-2-(4-(4,4,5,5-tetramethyl-1,3,2-dioxaborolan-2-yl)phenyl)acetamido)acetamido)-3-(3,5-difluorophenyl)-N-(4-methoxyphenyl)-N-methylpropanamide] | 3 | 3 |
| COc1ccc(N(C)C(=O)[C@H](Cc2cc(F)cc(F)c2)NC(=O)CN(Cc2ccc(F)cc2)C(=O)Cc2c[nH]c3ccc(Br)cc23)cc1 [I-9, (S)-2-(2-(2-(5-bromo-1H-indol-3-yl)-N-(4-fluorobenzyl)acetamido)acetamido)-3-(3,5-difluorophenyl)-N-(4-methoxyphenyl)-N-methylpropanamide] | <1 | 6 |
| COc1ccc(N(C)C(=O)[C@H](Cc2cc(F)cc(F)c2)NC(=O)CN(Cc2ccc(F)cc2)C(=O)Cc2c(C)[nH]c3ccccc23)cc1 [I-7, (S)-3-(3,5-difluorophenyl)-2-(2-(N-(4-fluorobenzyl)-2-(2-methyl-1H-indol-3-yl)acetamido)acetamido)-N-(4-methoxyphenyl)-N-methylpropanamide] | – | 8 |
| COc1ccc(N(C)C(=O)[C@H](Cc2cc(F)cc(F)c2)NC(=O)CN(Cc2ccccc2)C(=O)Cc2ccc3ccccc3c2)cc1 [I-22, (S)-2-(2-(N-benzyl-2-(naphthalen-2-yl)acetamido)acetamido)-3-(3,5-difluorophenyl)-N-(4-methoxyphenyl)-N-methylpropanamide] | <1 | <1 |
| COc1ccc(N(C)C(=O)[C@H](Cc2cc(F)cc(F)c2)NC(=O)CN(Cc2ccc(F)cc2)C(=O)Cc2ccc(B(O)O)cc2)cc1 [I-23, (S)-(4-(2-((2-((3-(3,5-difluorophenyl)-1-((4-methoxyphenyl)(methyl)amino)-1-oxopropan-2-yl)amino)-2-oxoethyl)(4-fluorobenzyl)amino)-2-oxoethyl)phenyl) boronic acid] | 3 | 4 |
| COc1ccc(N(C)C(=O)[C@H](Cc2cc(F)cc(F)c2)NC(=O)CN(Cc2ccc(F)cc2)C(=O)Cn2nc(C(F)(F)F)c3c2CCCC3)cc1 [I-19, (S)-3-(3,5-difluorophenyl)-2-(2-(N-(4-fluorobenzyl)-2-(3-(trifluoromethyl)-4,5,6,7-tetrahydro-1H-indazol-1-yl)acetamido)acetamido)-N-(4-methoxyphenyl)-N-methylpropanamide] | 8 | 42 |
| (S)-2-(2-(N-(4-cyanobenzyl)-2-(5-fluoro-2-methyl-1H-indol-3-yl)acetamido)acetamido)-3-(3,5-difluorophenyl)-N-(4-methoxyphenyl)-N-methylpropanamide [I-15] | 26 | 9 |
